Library screen at single concentrations

The filed quantity is “Percent Effect” (%). The controls that fix the scale are not given in the record; negative values are as filed. This is part of a subset picked to be rich in strong results.

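Growth of Mycobacterium tuberculosis over 3 days (7H9 medium with glucose and tyloxapol); the read-out is not stated. Concentration: 500 µM. Direction is inferred from retests: higher values go with more growth inhibition. About 18,000 compounds were tested under these conditions; 7.9% (about 1,400) showed 50% or more at least once.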

SMILES | effect
CCC(COC)NC(=O)Nc1nnc2ccccn12 (stereo unspecified) | -14.6
Nc1nnc(CC(=O)N2CCCC2)[nH]1 | 13.17
CSc1ccc(C(CN)N(C)C)cc1 (stereo unspecified) | 82.12
Cc1cc(C(=O)N2CCC(C(N)=O)C2)cc(Cl)c1Br (stereo unspecified) | 68.84
CCN1CC(C(=O)NCCC2=CCCCC2)CC1=O (stereo unspecified) | 16
NCC(C(=O)N1CCOCC1)c1ccccc1 (stereo unspecified) | -8.992
CC(C)C(=O)N1CCCCC1C (stereo unspecified) | 7.549
Cn1cccc1C1COCCN1 (stereo unspecified) | -15.27
CC(C)CC(O)CNC(=O)c1ccccc1O (stereo unspecified) | -1.14
COCc1nn(CCn2cc(Br)cn2)c(=O)o1 | 41.83
COc1ccc(F)cc1C(=O)OCC(=O)NC1CC1 | 78.24
COc1ccccc1CNc1ccc(C#N)cn1 | 49.78
O=C(CN1CCCC1=O)NCCc1cscn1 | 4.127
O=C(Cc1ccccc1)NC1CCNCC1 | -3.139
[H][C@]12CCC[C@@]([H])(CN(CCC(=O)Nc3cccnc3)C1)C2 | 33.74
Cn1ccnc1CN1CCN(Cc2ccccn2)CC1 | 20.47
C=C(C)COc1ccc(C(=O)NCc2ncc[nH]2)cc1 | 44.88
O=C(COC1CCCCC1)NCc1c[nH]nn1 | 2.399
CNCCCNC(=O)CCc1ccc(F)cc1 | 65.92
CN1CCOC(C(=O)Nc2ncccc2Br)C1 (stereo unspecified) | -14.45
CC(=O)c1ccccc1NC(=O)CN1CC[C@H](N)C1 | 56.22
CCc1cnc(NCCCN2CCN(C)CC2)nc1 | 14.88
COCCCOc1cc(C)ccc1CN | -4.422
O=C(Cc1ccccn1)N[C@@H]1COCC[C@H]1O | 5.085
COC(=O)c1ccc(NC(=O)CCn2cnnn2)cc1 | 14.44
CC(=O)N1CCc2cc(NC(=O)c3ccsc3)ccc21 | 4.584
COc1ccc(C(C)=O)cc1CN1CCCCC1 | -3.785
CN(C)c1ncccc1CNS(=O)(=O)c1cnn(C)c1 | -1.412
CC(C)(C)OC(=O)NCC1CNCCO1 (stereo unspecified) | 8.563
NC(=O)C1(c2ccccc2F)CCCC1 | 3.201
CC(NC(=O)CNc1ccccc1F)c1ccco1 (stereo unspecified) | 68.94
CCC1(CO)CCCN(C(=O)c2ccc(COC)s2)C1 (stereo unspecified) | 62.45
COc1cccc(N2CCC(N)CC2)c1 | 61.48
Cc1ccc(NCc2cc[nH]n2)cc1S(C)(=O)=O | -6.791
Cc1ccsc1CNC(=O)Cn1cnc(C#N)c1C#N | 7.847
COc1ccc2c(c1)CCN2C(=O)C(C)(C)C#N | 68.31
C=C(C)COCCNC(=O)c1c(O)cccc1F | 50.33
Cc1cn2c(n1)CCC(NC(=O)COCC(F)(F)F)C2 (stereo unspecified) | 11.06
CN(C)C(CNC(=O)CN1CCCC1=O)c1cccs1 (stereo unspecified) | 37.23
CC(C)(C)CC(=O)NCCNC(=O)c1ccco1 | 19.81
COc1cc(OC)cc(N2CCCNCC2)c1 | 71.57
CC(C)(CO)NC(=O)CCC(=O)c1cccs1 | 9.124
CCC1(CC)CN(C(=O)NCCC(C)C)CCS1(=O)=O | 53.47
Cc1nnc(SCCCNC(=O)c2cnccc2C)s1 | 28.71
CCC(CO)N1CCN(c2cccc(C)n2)CC1 (stereo unspecified) | 15
CSc1ncccc1C(=O)NCCN1CCC(C)CC1 | -3.774
O=C(NCc1cc(Br)cs1)N1CCC(O)CC1 | 34.76
CNc1cc(C(=O)NCc2csc(N(C)C)n2)ccn1 | 25.76
COc1ccc(NC(=O)CNC(=O)C(C)(C)C)cc1 | 25.44
CCN(C)C(C)C(=O)Nc1cccc(S(N)(=O)=O)c1 (stereo unspecified) | 8.314
CNc1cnc(C#N)cn1 | 6.999
CCN1CCCN(C(=O)c2cc(C3CC3)on2)CC1=O | 19.62
CN(CCn1cccn1)C(=O)C1CC12CCNCC2 (stereo unspecified) | 4.521
CC(CO)(CO)NCc1cnn(-c2ccc(Br)cc2)c1 | 62.68
CCOC(=O)c1cnn(-c2ccc(OCC)cc2)c1N | 57.47
COc1ccc(CN(C)C(=O)C2CC2)cc1F | 66.26
CN1CCCN(c2nc3ccccc3cc2CO)CC1 | 39.32
COc1cccc(OC(F)(F)F)c1CN | 26.67
CCn1nc(C)cc1C(=O)N1CCN=C1SC | 4.135

Some entries from above, unchanged:

SMILES	effect
Cc1ccc(NCc2cc[nH]n2)cc1S(C)(=O)=O	-6.791
Cn1cccc1C1COCCN1 (stereo unspecified)	-15.27
COc1ccc(C(C)=O)cc1CN1CCCCC1	-3.785
O=C(CN1CCCC1=O)NCCc1cscn1	4.127
CCC1(CC)CN(C(=O)NCCC(C)C)CCS1(=O)=O	53.47

The values are deposited in ChEMBL (CHEMBL3988442, “University of Dundee, Small-Polar-MMV Screening Library” (2021)).